Results deposited as PubChem BioAssay AID624099 (ICCB-Longwood, 2012)

Screen: 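Human genes that papillomavirus E2 requires to repress the HPV18 LCR promoter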 (primary screen)
System: human C33A cervical carcinoma cells (HPV-negative) stably expressing BPV1 E2 and an HPV18 LCR luciferase reporter
Reagent: siRNA pool against human genes, 40 nM
Timing: 72 h
Detection: 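HPV18 LCR reporter light per well, converted to plate-wise z-scores that exclude control wells, and averaged over triplicate plates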
Reading the numbers: mean z-score and z-score: higher = stronger reporter signal, weaker E2 silencing
Call rule: 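Mean z ≥ 2 together with z ≥ 2 in two or more of the three replicates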
The deposit covers about 21,000 reagents; below is a random part of them. 497 of all reagents (2.4%) count as active. 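Higher z means weaker E2 silencing; only reporter increases were scored, and knock-downs that hurt cell survival may mask genuine repressor factors.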 Unmarked entries are inactive. Reagents against one gene are numbered here.

Gene | reagent no. | mean z-score | z-score, replicate A | z-score, replicate B | z-score, replicate C
FMO4 (flavin containing dimethylaniline monoxygenase 4) | 1 | -0.84 | -0.65 | -0.89 | -0.99
ITPKC (inositol-trisphosphate 3-kinase C) | 1 | -0.97 | -1.15 | -1.06 | -0.71
NPEPPSP1 (NPEPPS pseudogene 1) | 1 | -1.23 | -1.63 | -0.99 | -1.06
ISOC1 (isochorismatase domain containing 1) | 1 | 1.28 | 1.41 | 1.08 | 1.34
LINC00269 (long independently transcribed non-coding RNA 269) | 1 | 0.91 | 0.73 | 0.86 | 1.15
TLR3 (toll like receptor 3) | 1 | 0.26 | 0.17 | 0.42 | 0.19
GDE1 (glycerophosphodiester phosphodiesterase 1) | 1 | 1.66 | 1.72 | 1.93 | 1.33
OPTC (opticin) | 1 | -0.4 | -0.26 | -0.5 | -0.43
AK9 (adenylate kinase 9) | 1 | -1.63 | -1.46 | -1.94 | -1.48
AK9 (adenylate kinase 9) | 2 | 0 | 0.33 | -0.03 | -0.31
RBP1 (retinol binding protein 1) | 1 | 1.84 | 1.59 | 1.93 | 2
ATOH7 (atonal bHLH transcription factor 7) | 1 | -0.41 | -0.29 | -0.66 | -0.29
PAG1 | 1 | 1.31 | 1.14 | 1.41 | 1.38
NBAS (NBAS subunit of NRZ tethering complex) | 1 | 1.95 | 2.04 | 1.6 | 2.2
TRIM72 (tripartite motif containing 72) | 1 | -1.09 | -0.72 | -1.18 | -1.36
SLC25A45 | 1 | -0.29 | -0.13 | -0.25 | -0.48
GHDC (GH3 domain containing) | 1 | -1.18 | -1.51 | -1.14 | -0.9
PRMT8 (protein arginine methyltransferase 8) | 1 | 0.54 | 0.44 | 0.54 | 0.65
POTEH (POTE ankyrin domain family member H) | 1 | 1.76 | 1.99 | 1.93 | 1.37

As entered above:
For “mean z-score”, AK9 (adenylate kinase 9) #1 reads -1.63
Result of ATOH7 (atonal bHLH transcription factor 7) in “z-score, replicate B”: -0.66
NPEPPSP1 (NPEPPS pseudogene 1), z-score, replicate C: -1.06
Result of TLR3 (toll like receptor 3) in “z-score, replicate B”: 0.42
Entry for PAG1 under “mean z-score”: 1.31
Under “z-score, replicate B”, POTEH (POTE ankyrin domain family member H) reads 1.93

The listing continues:
Gene | reagent no. | mean z-score | z-score, replicate A | z-score, replicate B | z-score, replicate C
ZNF439 (zinc finger protein 439) | 1 | 0.32 | 0.75 | 0.15 | 0.06
FLJ40194 | 1 | 0.31 | 0.29 | 0.31 | 0.33
TPRG1L (tumor protein p63 regulated 1 like) | 1 | -0.82 | -0.73 | -1.1 | -0.62
UQCRFS1 | 1 | -0.13 | 0.23 | -0.35 | -0.29
PRIMA1 (proline rich membrane anchor 1) | 1 | 0.86 | 0.8 | 0.33 | 1.44
FBXO10 (F-box protein 10) | 1 | -1.02 | -1 | -1.12 | -0.93
ITGA4 (integrin subunit alpha 4) | 1 | -0.76 | -0.75 | -0.84 | -0.68
PSG7 (pregnancy specific beta-1-glycoprotein 7) | 1 | 2.3 (active) | 2.14 | 2.25 | 2.52
RPL11 (ribosomal protein L11) | 1 | -3 | -3.23 | -2.99 | -2.78
LOC102723968 | 1 | -0.78 | -0.75 | -0.64 | -0.94
ENTR1 (endosome associated trafficking regulator 1) | 1 | -0.23 | -0.1 | -0.14 | -0.44
PRDM4 (PR/SET domain 4) | 1 | 1.43 | 1.39 | 1.17 | 1.72
SHKBP1 (SH3KBP1 binding protein 1) | 1 | -0.22 | -0.5 | -0.35 | 0.19
CCDC7 (coiled-coil domain containing 7) | 1 | -0.08 | 0.06 | -0.37 | 0.07
CCDC7 (coiled-coil domain containing 7) | 2 | 0.52 | 0.41 | 0.24 | 0.9
BIRC2 (baculoviral IAP repeat containing 2) | 1 | 0.76 | 0.76 | 0.57 | 0.95
PPIAP80 (peptidylprolyl isomerase A pseudogene 80) | 1 | -0.21 | -0.32 | -0.06 | -0.26
NDUFS4 (NADH:ubiquinone oxidoreductase subunit S4) | 1 | -0.24 | -0.43 | -0.7 | 0.41
SEMA6A (semaphorin 6A) | 1 | -0.63 | 0.33 | 0 | -2.22
TMEM181 (transmembrane protein 181) | 1 | -1.15 | -0.82 | -1.23 | -1.4
NUP210L (nucleoporin 210 like) | 1 | 0.61 | 0.06 | 0.7 | 1.07
METTL21A (methyltransferase 21A, HSPA lysine) | 1 | 0.28 | -0.01 | 0.44 | 0.41
ZNF324B (zinc finger protein 324B) | 1 | 0.15 | -0.07 | 0.54 | -0.02
YTHDF3 (YTH N6-methyladenosine RNA binding protein F3) | 1 | -0.52 | -0.44 | -0.41 | -0.7
PDHA1 (pyruvate dehydrogenase E1 subunit alpha 1) | 1 | -0.64 | -1.03 | -0.66 | -0.24
FAR2 (fatty acyl-CoA reductase 2) | 1 | -0.26 | -0.43 | -0.7 | 0.36
LINC00315 (long independently transcribed non-coding RNA 315) | 1 | -0.8 | -0.81 | -0.8 | -0.79
NDNF (neuron derived neurotrophic factor) | 1 | 0.09 | -0.03 | 0.13 | 0.18
LOC339685 | 1 | 0.31 | 0.33 | 0.27 | 0.34
ORC4 (origin recognition complex subunit 4) | 1 | 0.18 | 0.12 | 0.54 | -0.12
CDKL1 (cyclin dependent kinase like 1) | 1 | 0.54 | 0.47 | 0.31 | 0.83
ACSL3 (acyl-CoA synthetase long chain family member 3) | 1 | 1.48 | 1.05 | 1.69 | 1.69
SP3 (Sp3 transcription factor) | 1 | 2.82 (active) | 2.73 | 3.13 | 2.61
TTLL7 (tubulin tyrosine ligase like 7) | 1 | 0.85 | 1.28 | 0.52 | 0.75
ZSCAN31 (zinc finger and SCAN domain containing 31) | 1 | 0.16 | 0.15 | 0.23 | 0.11
SLC25A3 | 1 | -0.11 | 0.09 | -0.35 | -0.06
CAMK1D (calcium/calmodulin dependent protein kinase ID) | 1 | 0.67 | 0.21 | 0.87 | 0.94
STYXL1 (serine/threonine/tyrosine interacting like 1) | 1 | -0.95 | -0.95 | -1.04 | -0.86
